Measured values as given in publication PMC7762174 (Viruses, 2020).

System: SARS-CoV-2
Format: cell-based
Conditions: for Anti-SARS-CoV-2 drug efficacy on Vero cells: SI: CC50/EC50, Vero cells, RT-qPCR

## COC(=O)c1c(-c2c(F)cccc2Cl)noc1-c1cnn(-c2cccc(Cl)c2)c1C(F)(F)F [IMU-CO3]
  Anti-SARS-CoV-2 drug efficacy on Vero cells: SI: > 6.5

## CCC(CC)COC(=O)[C@H](C)N[P@](=O)(OC[C@H]1O[C@@](C#N)(c2ccc3c(N)ncnn23)[C@H](O)[C@@H]1O)Oc1ccccc1 [RDV, remdesivir, reference compound]
CC50/EC50, Vero 76
  SI (RT-qPCR/NRA): > 59
  Anti-SARS-CoV-2 drug efficacy on Vero cells: SI: > 59
